Reference: PMC2742733, “Bacillus anthracis Lethal Toxin Disrupts TCR Signaling in CD1d-Restricted NKT Cells Leading to Functional Anergy” (2009)

Target: specific receptors for PA on NKT cells (mouse (endogenous in C57BL/6 NKT cells))
Assay: flow cytometry on cells

## Alexa 647-conjugated protective antigen (PA) of Bacillus anthracis (from UniProt P13423) (natural protein)
  Kd: 0.02 µM
